Experimental data taken from US20010044416A1 (priority 2000, published 2001).

Key:
[1] = system: TT-specific antibodies (anti-TT); settings: TT 10 μg days 0, 7, 14, no adjuvant, ODN 100 μg or CT 10 μg
[2] = system: FLUVIRAL®-specific antibodies; settings: oral FLUVIRAL® 50 μl days 0, 7, 14 with 10 μg ODN, vs no adjuvant; plasma 1 week after final immunization (FIG. 4a)

Substance	mice responding (anti-TT IgG in plasma>100) ([1]; IN route, plasma 1 week after final immunization (FIG. 8b))	mice responding (anti-TT IgG in plasma>100) ([1]; IR route, plasma 1 week after final immunization (FIG. 8a))	mice responding (anti-TT IgG in plasma>100) ([1]; oral delivery, plasma 1 week after final immunization (FIG. 8c))	augmentation of mean FLUVIRAL®-specific IgG titers in plasma [2]
Cholera toxin	5/5	5/5	5/5	–
5′-TCCATGAGCTTCCTGAGCTT-3′	–	–	–	approximately 5 fold

Where two headings read alike, the source gives them in different places.
